A mixed list of measured activities; the numbers were collected in NIAID ChemDB.

Common to all: cytotoxicity tests; cells: MT-4; endpoint: CC50

Conditions beyond the fields shown may differ between rows. Blank or dashed fields: not listed here. CCn: concentration that lowers growth or viability of the cells by n%.

SMILES,method,result
C[C@H](CCC(=O)O)[C@H]1CC[C@H]2C3[C@H](O)C[C@@H]4C[C@H](OS(=O)(=O)O)CC[C@]4(C)[C@H]3CC[C@]12C,,335 µg/mL
Cc1cn([C@H]2C[C@H](N=[N+]=[N-])[C@@H](CO)O2)c(=O)[nH]c1=O,MTT,113 µM
C[C@H](CCC(=O)O)[C@H]1CC[C@H]2[C@@H]3CC[C@@H]4C[C@H](OS(=O)(=O)O)CC[C@]4(C)[C@H]3CC[C@]12C,,276 µg/mL
COc1ccc(NC(=O)CN2CCC(Nc3nccc(Oc4c(C)cc(C#N)cc4C)n3)CC2)cc1,MTT,1.562 µM
COc1ccc(CN2CCC(N=C3C=C(Cc4cccc5ccccc45)NS(=O)(=O)N3)CC2)cc1,MTT,199 µM
CN(C)c1ccc(CNC(=O)[C@@H](NC(=O)Cc2ccccc2)[C@@H]2N[C@@H](C(=O)NCCNC(=O)[C@@H]3N[C@@H]([C@H](NC(=O)Cc4ccccc4)C(=O)NCc4ccc(N(C)C)cc4)SC3(C)C)C(C)(C)S2)cc1,,>100 µM
COc1c(CCC(C)C)c(O)cc2c1C[C@H](c1ccc(O)c(CCC(C)C)c1O)CO2,,26 µg/mL
CCCCSc1nc(N)cc(Sc2ccc3ccccc3c2)n1,,68 µM
CCCCc1ccc(CSc2nc(Cc3ccc(C#N)cc3)c(C)c(=O)[nH]2)cc1,,>79.87 µM
CCN(CC)C(=O)N1CCN(C(=O)N2CCCCC2)CC1,MTT,>125 µg/mL
Cc1ccc(CN2C(=O)CSC2c2c(F)cccc2F)o1,,125 µM
Cc1ccc(NC(=O)CN2CCC(Nc3nccc(Oc4c(C)cc(C#N)cc4C)n3)CC2)cc1,MTT,2.019 µM
CCCCSc1nc(N)cc(Sc2ccccc2)n1,,123 µM
C[C@H](CCC(=O)O)[C@H]1CC[C@H]2[C@@H]3[C@H](O)C[C@@H]4C[C@H](O)CC[C@]4(C)[C@H]3CC[C@]12C,,62 µg/mL
CCCc1cc(=O)c2ccc3c(c2o1)[C@@H](OC(=O)C12CCC(C)(C(=O)O1)C2(C)C)[C@@H](OC(=O)C12CCC(C)(C(=O)O1)C2(C)C)C(C)(C)O3,,37.65 µM
COc1ccc(CN2CCC(N=C3C=C(Cc4ccc(Cl)cc4Cl)NS(=O)(=O)N3)CC2)cc1,MTT,109 µM
Cc1cc(C#N)cc(C)c1Oc1ccnc(NC2CCN(CC(=O)Nc3ccc(C#N)cc3)CC2)n1,MTT,0.602 µM
c1ccc(C2SCc3nc4ccccc4n32)cc1,,19.2 µM
CCN(CC)C(=O)N1CCN(C(=O)N2CCN(C)CC2)CC1,MTT,>125 µg/mL
COc1ccc(CN2CCC(Nc3nc(Nc4c(C)cc(C)cc4C)c4[nH]cnc4n3)CC2)cc1,MTT,15.1 µM
Cc1c(Cc2c(Cl)cccc2Cl)nc(SCc2ccc(Cl)cc2)[nH]c1=O,MTT,>59 µM
Cc1cc(C)c(Nc2nc(NC3CCN(Cc4cccc(F)c4)CC3)nc3nc[nH]c23)c(C)c1,MTT,30.68 µM
O=C(NCCc1ccc(F)cc1)C1C(=O)N(O)C(=O)c2ccccc21,MTT,134 µM
Cc1cc(C)nc(N2C(=O)CSC2c2c(Cl)cccc2Cl)n1,,161 µM
CCC(C)Oc1cc(=O)[nH]c(Sc2ccc(F)cc2)n1,,108 µM
Cc1cc(C#N)cc(C)c1Oc1ccnc(NC2CCN(CC(=O)Nc3ccc(Br)cc3)CC2)n1,MTT,>1.475 µM
O=C1CSC(c2ccnc3ccccc23)N1c1ccccn1,,33.93 µM
Cc1cc(C)c(Nc2nc(NC3CCN(Cc4ccccn4)CC3)nc3nc[nH]c23)c(C)c1,MTT,114 µM
CC1(C)S[C@H]([C@H](NC(=O)Cc2ccccc2)C(=O)NCC2CCCCC2)N[C@H]1C(=O)NCCNC(=O)[C@@H]1N[C@@H]([C@H](NC(=O)Cc2ccccc2)C(=O)NCC2CCCCC2)SC1(C)C,,>100 µM
COc1ccc(/C=C/CSc2nc(C(C)c3c(Cl)cccc3Cl)c(C)c(=O)[nH]2)cc1,,>10.84 µM
CN1C/C(=C\c2cc(O)c(O)c(O)c2)C(=O)/C(=C/c2cc(O)c(O)c(O)c2)C1,MTT,46 µM
CCC(C)Oc1nc(Sc2ccccc2)cc(=O)[nH]1,,147 µM
CCc1c(Cc2c(F)cccc2F)nc(SCc2ccc(OC)cc2)[nH]c1=O,,>62.19 µM
CCCCOc1ccc(CSc2nc(Cc3c(Cl)cccc3Cl)c(C)c(=O)[nH]2)cc1,MTT,3.1 µM
Cc1cn([C@H]2C[C@H](N=[N+]=[N-])[C@@H](CO)O2)c(=O)[nH]c1=O,MTT,>1 µg/mL
CC1(C)S[C@H]([C@H](NC(=O)Cc2ccccn2)C(=O)NCc2ccc(Cl)cc2)N[C@H]1C(=O)NCCNC(=O)[C@@H]1N[C@@H]([C@H](NC(=O)Cc2ccccn2)C(=O)NCc2ccc(Cl)cc2)SC1(C)C,,>100 µM
O=C1/C(=C/c2cc(O)c(O)c(O)c2)COC/C1=C\c1cc(O)c(O)c(O)c1,MTT,115 µM
O=S1(=O)NC(Cc2ccc(Cl)cc2Cl)=CC(=NC2CCN(Cc3ccc(Br)cc3)CC2)N1,MTT,97.9 µM
CCNC(=O)[C@@H](NC(=O)Cc1cccs1)[C@@H]1N[C@@H](C(=O)NCCNC(=O)[C@@H]2N[C@@H]([C@H](NC(=O)Cc3cccs3)C(=O)NCC)SC2(C)C)C(C)(C)S1,,>100 µM
CCN1C/C(=C\c2ccc(O)c([N+](=O)[O-])c2)C(=O)/C(=C/c2ccc(O)c([N+](=O)[O-])c2)C1,MTT,15 µM
CCNC(=O)[C@@H](NC(=O)c1ccccc1Cc1ccccc1)[C@@H]1N[C@@H](C(=O)NCCNC(=O)[C@@H]2N[C@@H]([C@H](NC(=O)c3ccccc3Cc3ccccc3)C(=O)NCC)SC2(C)C)C(C)(C)S1,,>100 µM
CCOC(=O)c1oc2cc(O)cc(O)c2c(=O)c1Oc1ccc(OCc2ccccc2)cc1OCc1ccccc1,,>25 µg/mL
CCN(CC)C(=O)N1CCN(C(=O)N(C)CCN2CCCC2)CC1,MTT,>125 µg/mL
Nc1ccc2c(c1)C(=O)N(O)C(=O)C2C(=O)NCc1ccc(F)cc1,MTT,217 µM
CC1CCCCN1CCCNCc1ccc(CN2CCCNCCNCCCNCC2)cc1,MTT,>25 µg/mL
Cc1c(Cc2c(F)cccc2F)nc(SC/C=C/c2ccc([N+](=O)[O-])cc2)[nH]c1=O,,11.65 µM
CCC(C)Oc1cc(=O)[nH]c(Sc2cccc(C)c2)n1,,171 µM
CC(=O)O[C@@H]1[C@H](OC(=O)C23CCC(C)(C(=O)O2)C3(C)C)c2c(ccc3c(=O)cc(C)oc23)OC1(C)C,,>40.2 µM
O=C1CSC(c2c(F)cccc2F)N1c1ncccn1,,>426.2 µM
C1CNCCNCC(C2CNCCNCCCNCCNC2)CNCCNC1,,54 µg/mL
Cc1cc(C#N)cc(C)c1Oc1ccnc(NC2CCN(CC(=O)Nc3ccc(Cl)cc3)CC2)n1,MTT,0.998 µM
Cc1coc2c3c(ccc2c1=O)OC(C)(C)[C@H](OC(=O)C12CCC(C)(C(=O)O1)C2(C)C)[C@@H]3OC(=O)C12CCC(C)(C(=O)O1)C2(C)C,,3.14 µM
CCCCCCCCCCCCNC(=O)C1C(=O)N(O)C(=O)c2ccccc21,MTT,18.55 µM
NC1=Nc2c(ncn2CCCCC(F)(F)P(=O)(O)O)C(=O)C1,MTT,>500 µM
CCOCn1c(Sc2ccccc2)c(CC)c(=O)[nH]c1=O,,>100 µM
Cc1cc(C#N)cc(C)c1Oc1ccnc(NC2CCN(CC(=O)Nc3cccc([N+](=O)[O-])c3)CC2)n1,MTT,>0.379 µM
O=C1/C(=C/c2ccc(O)c(O)c2)CCC/C1=C\c1ccc(O)c(O)c1,MTT,7.4 µM
CC(C)=CCC1(CC=C(C)C)C=C([C@@H]2COc3c(ccc4c3C=CC(C)(C)O4)C2)C(O)=CC1=O,,30 µg/mL
COc1ccc(CCCSc2nc(C(C)c3c(Cl)cccc3Cl)c(C)c(=O)[nH]2)cc1,,>10.8 µM
COc1c2c(cc(O)c1CC=C(C)C)OCC(c1ccc(O)cc1O)=C2,,10 µg/mL
c1cc(CN2CCCNCCNCCCNCC2)ccc1CN1CCCNCCNCCCNCC1,,>250 µM
CCc1c(C(C)c2c(F)cccc2F)nc(SC/C=C/c2ccc([N+](=O)[O-])cc2)[nH]c1=O,,5.75 µM
CC1SC(c2c(F)cccc2F)N(Cc2ccco2)C1=O,,118 µM
Cc1cn([C@H]2C[C@H](N=[N+]=[N-])[C@@H](COP(=O)(OCCSC(=O)C(C)(C)O)OCCSC(=O)C(C)(C)O)O2)c(=O)[nH]c1=O,,>100 µM
COc1ccc(CSc2nc(Cc3c(F)cccc3F)c(C)c(=O)[nH]2)cc1OC,,39.69 µM
Cc1cc(C)nc(N2C(=O)CSC2c2c(F)cccc2Cl)n1,,174 µM
CC1(C)S[C@H]([C@H](NC(=O)Cc2ccccc2)C(=O)NCCO)N[C@H]1C(=O)NCCNC(=O)[C@@H]1N[C@@H]([C@H](NC(=O)Cc2ccccc2)C(=O)NCCO)SC1(C)C,,>100 µM
O=C(NC1CCCC1)C1C(=O)N(O)C(=O)c2ccccc21,MTT,128.5 µM
Cc1ccnc2c1NC(=O)c1cccnc1N2C1CC1,MTT,>15.02 µM
CC(C)=CCc1c(O)cc(CCc2ccc(O)c(O)c2)c(CC=C(C)C)c1O,,2 µg/mL
CC(=O)c1ccc(CN2CCC(N=C3C=C(Cc4cccc5ccccc45)NS(=O)(=O)N3)CC2)cc1,MTT,106 µM
COc1ccc(CSc2nc(Cc3ccc(F)cc3)c(C)c(=O)[nH]2)cc1,MTT,8.9 µM
COc1cc(C)nc(N2C(=O)CSC2c2c(F)cccc2F)n1,,>370.5 µM
CCC(C)Oc1nc(Sc2cccc(C)c2)cc(=O)[nH]1,,>200 µM
O=C1C=CC(=C(c2ccc(O)cc2)c2ccc(O)cc2)C=C1,,2.6 µM
CCC(C)Oc1cc(=O)[nH]c(Sc2ccc(Cl)cc2)n1,,>300 µM
C1CNCCNCCCN[C@@H]([C@H]2CNCCCNCCNCCCN2)CNC1,,200 µg/mL
CCOCc1cc(=O)c2ccc3c(c2o1)[C@@H](OC(=O)C12CCC(C)(C(=O)O1)C2(C)C)[C@@H](OC(=O)C12CCC(C)(C(=O)O1)C2(C)C)C(C)(C)O3,,>12.5 µM
C[C@H](CCC(=O)O)[C@H]1CC[C@H]2[C@@H]3[C@H](OS(=O)(=O)O)C[C@@H]4C[C@H](O)CC[C@]4(C)[C@H]3C[C@H](O)[C@]12C,,>500 µg/mL
NC1=Nc2c(ncn2CCC/C=C/P(=O)(O)O)C(=O)C1,MTT,138 µM
Cc1c(Cc2c(Cl)cccc2Cl)nc(SCc2cccc(F)c2)[nH]c1=O,MTT,>61 µM